This assay concerns the target 50 kDa truncated variant of VCC lacking the β-prism lectin domain (VCC50) (Vibrio cholerae non-O1 strain V2). Kind of assay: SDS-PAGE of oligomers.

Our source for the stoichiometry N values is PMC3089043, “The role of C-terminus carbohydrate-binding domain of Vibrio cholerae haemolysin/cytolysin in the conversion of the pre-pore β-barrel oligomer to a functional diffusion channel” (2011).

With “50 kDa truncated variant of VCC lacking the β-prism lectin domain (VCC50) (domain or fragment)”, the stoichiometry N (usually a count of units in the complex or per binding partner) was found to be 7.
